This assay has as its target T1, Flag-TRAF2, not stated, Q12933 1-501.
T1 sequence: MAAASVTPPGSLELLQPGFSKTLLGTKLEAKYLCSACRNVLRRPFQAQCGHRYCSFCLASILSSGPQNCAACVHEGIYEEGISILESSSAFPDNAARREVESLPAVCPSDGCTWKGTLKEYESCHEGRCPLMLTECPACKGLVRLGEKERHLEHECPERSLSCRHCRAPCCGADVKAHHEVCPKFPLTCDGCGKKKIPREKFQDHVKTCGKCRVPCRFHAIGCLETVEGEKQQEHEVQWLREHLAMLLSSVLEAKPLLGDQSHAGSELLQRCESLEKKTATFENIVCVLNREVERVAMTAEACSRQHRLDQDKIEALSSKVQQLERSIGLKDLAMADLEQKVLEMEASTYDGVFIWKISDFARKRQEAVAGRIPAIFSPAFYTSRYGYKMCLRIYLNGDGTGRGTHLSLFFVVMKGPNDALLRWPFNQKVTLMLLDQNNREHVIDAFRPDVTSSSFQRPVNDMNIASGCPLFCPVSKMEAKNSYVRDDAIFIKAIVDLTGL
Put plainly: co-immunoprecipitation from 293T lysates.

Turning to vaccinia virus A52R protein, the result was “no binding”.

The record behind these values is patent US20050244430.
